According to the supplement of paper PMC9931576:
Human monoclonal antibodies against the spike receptor-binding domain (heavy:light variable regions). IC50 against pseudoviruses bearing the spike of naturally observed variants; lower = stronger; >10 µg/ml means not reached at the top dose. No active / inactive call. The stated detection limit is 0.0005 µg/ml; values near or below 0.001 µg/ml lie at the floor of the assay.

How the values were obtained:
Experiment in all cases: pseudovirus neutralization IC50; higher = weaker neutralization
[1] = target: SARS-CoV-2 Omicron BA.1 spike pseudovirus
Experimental: (§1)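 Single-round VSV luciferase pseudovirus mixed with antibody dilutions for 1 h and put on Huh-7 cells for about a day; IC50 from the dose curve.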

[2] = target: SARS-CoV-2 Omicron BA.2 spike pseudovirus
Experimental: as §1

[3] = target: SARS-CoV-2 Omicron BA.2.75 spike pseudovirus
Experimental: as §1

[4] = target: SARS-CoV-2 Omicron BA.2.75.2 spike pseudovirus
Experimental: as §1

[5] = target: SARS-CoV-2 Omicron BA.5 spike pseudovirus
Experimental: as §1

[6] = target: SARS-CoV-2 Omicron BM.1.1.1 spike pseudovirus
Experimental: as §1

[7] = target: SARS-CoV-2 Omicron BQ.1.1 spike pseudovirus
Experimental: as §1

[8] = target: SARS-CoV-2 Omicron BR.2 spike pseudovirus
Experimental: as §1

[9] = target: SARS-CoV-2 Omicron CA.1 spike pseudovirus
Experimental: as §1

[10] = target: SARS-CoV-2 Omicron XBB spike pseudovirus
Experimental: as §1

[11] = target: SARS-CoV-2 early D614G spike pseudovirus
Experimental: as §1

B1: BD56-1362 (protein)
chain 1: EVQLVESGGGLVQPGGSLRLSCAASGFTFSSYEMNWVRQAPGKGLEWLSYISSSGSTIYYADSVKGRFTISRDNAKNSLYLQLNSLRAEDTAVYYCATDEFWSGLYYMDVWGKGTTVIVSS
chain 2: DIQMTQSPSSVSASVGDRVTITCRASQGISSWLAWYQQKPGKAPKLLISAASSLQSGVPSRFSGSGSGTDFTLTISSLQPEDFATYYCQQANSFPRTFGQGTKLEIK
pseudovirus neutralization IC50 [1]: > 10 µg/mL | pseudovirus neutralization IC50 [2]: 0.000686 µg/mL | pseudovirus neutralization IC50 [3]: 1.22 µg/mL | pseudovirus neutralization IC50 [4]: > 10 µg/mL | pseudovirus neutralization IC50 [5]: > 10 µg/mL | pseudovirus neutralization IC50 [6]: > 10 µg/mL | pseudovirus neutralization IC50 [7]: > 10 µg/mL | pseudovirus neutralization IC50 [8]: > 10 µg/mL | pseudovirus neutralization IC50 [9]: > 10 µg/mL | pseudovirus neutralization IC50 [10]: > 10 µg/mL | pseudovirus neutralization IC50 [11]: > 10 µg/mL

B2: BD56-301 (protein)
chain 1: QVQLVQSGAEVKKPGASVKVSCKVSGYTLTELSMHWVRQAPGKGLEWMGGFDPEGAETIYAQNFQGRVTMTEDTSTDTAYMELSSLRSEDTAVFYCATVPPGATRSYVFDIWGQGTMVTVSS
chain 2: DIQMTQSPSSVSASVGDRVTITCRASQGISSWLAWYQQKPGKAPKLLIYAASNLQSGVPSRFSGSESGTDFTLTISSLQPEDFATYYCHQANSFPHTFGQGTKVEIK
pseudovirus neutralization IC50 [1]: 0.0821 µg/mL | pseudovirus neutralization IC50 [2]: > 10 µg/mL | pseudovirus neutralization IC50 [3]: > 10 µg/mL | pseudovirus neutralization IC50 [4]: > 10 µg/mL | pseudovirus neutralization IC50 [5]: > 10 µg/mL | pseudovirus neutralization IC50 [6]: > 10 µg/mL | pseudovirus neutralization IC50 [7]: > 10 µg/mL | pseudovirus neutralization IC50 [8]: > 10 µg/mL | pseudovirus neutralization IC50 [9]: > 10 µg/mL | pseudovirus neutralization IC50 [10]: > 10 µg/mL | pseudovirus neutralization IC50 [11]: > 10 µg/mL

B3: BD57-0325 (protein)
chain 1: QLQLQESGPGLVKPSETLPLTCTVSGNSISSSSYFWGWIRQPPGKGLEWIGSTYYSGRTDYNPSLKSRVTISVDTSKNQFSLKLSSVTAADTAVYYCARLSIYSSNWHYFDHWGQGTLVTVSS
chain 2: QSVLTQPPSVSGAPGQRVTISCTGSSSNIGAGYDVHWYQQLPGTAPKLLIYGNNNRPSAVPDRFSGSNSGTSASLAITGLQAEDEADYYCQSYDTSLSGFWVFGGGTKLTVL
pseudovirus neutralization IC50 [1]: > 10 µg/mL | pseudovirus neutralization IC50 [2]: 0.878 µg/mL | pseudovirus neutralization IC50 [3]: 0.00527 µg/mL | pseudovirus neutralization IC50 [4]: 0.0056 µg/mL | pseudovirus neutralization IC50 [5]: 0.000751 µg/mL | pseudovirus neutralization IC50 [6]: 0.00859 µg/mL | pseudovirus neutralization IC50 [7]: 0.00247 µg/mL | pseudovirus neutralization IC50 [8]: 0.00669 µg/mL | pseudovirus neutralization IC50 [9]: 0.00536 µg/mL | pseudovirus neutralization IC50 [10]: 0.00594 µg/mL | pseudovirus neutralization IC50 [11]: > 10 µg/mL

B4: BD58-0438 (protein)
chain 1: EVQLVQSGAEVKKPGESLKISCKVSAYSFTSYWIGWVRQMPGKGLEWMGIIYPGDSDTRYSPSFRGQVTISADKSISTSYLQWSSLKASDTAMYYCARMLWFGDAAHMDVWGQGTTVTVSS
chain 2: QSALTQPASVSGSPGQSITISCTGTSSDVGAHDYVSWYQQHPGKAPKLMIYDVSNRPSGVSNRFSGSKSGNTASLTISGLQAEDEADYYCSSYTSSSTLWVFGGGTKLTVL
pseudovirus neutralization IC50 [1]: > 10 µg/mL | pseudovirus neutralization IC50 [2]: > 10 µg/mL | pseudovirus neutralization IC50 [3]: > 10 µg/mL | pseudovirus neutralization IC50 [4]: > 10 µg/mL | pseudovirus neutralization IC50 [5]: > 10 µg/mL | pseudovirus neutralization IC50 [6]: > 10 µg/mL | pseudovirus neutralization IC50 [7]: > 10 µg/mL | pseudovirus neutralization IC50 [8]: > 10 µg/mL | pseudovirus neutralization IC50 [9]: > 10 µg/mL | pseudovirus neutralization IC50 [10]: > 10 µg/mL | pseudovirus neutralization IC50 [11]: > 10 µg/mL

B5: BD58-0464 (protein)
chain 1: EVQLVQSGAEVKKPGESLKISCKGSGYSFTIYWIGWVRQMPGKGLEWMGIIYPGDADTRYSPSFQGQVIISADKSTSTAYLQWNSLKASDTAMYYCARHYASGSYTTVLDYWGQGTLVTVSS
chain 2: QSVLTQPPSVSAAPGQKVTISCSGSTSNIGNNYVSWYQQLPETAPKLLIYDNNKRPSGIPDRFSGSKSGTSATLVITGLQTGDEADYYCGTWDSSLSAGGVFGGGTKLTVL
pseudovirus neutralization IC50 [1]: > 10 µg/mL | pseudovirus neutralization IC50 [2]: > 10 µg/mL | pseudovirus neutralization IC50 [3]: > 10 µg/mL | pseudovirus neutralization IC50 [4]: > 10 µg/mL | pseudovirus neutralization IC50 [5]: > 10 µg/mL | pseudovirus neutralization IC50 [6]: > 10 µg/mL | pseudovirus neutralization IC50 [7]: > 10 µg/mL | pseudovirus neutralization IC50 [8]: > 10 µg/mL | pseudovirus neutralization IC50 [9]: > 10 µg/mL | pseudovirus neutralization IC50 [10]: > 10 µg/mL | pseudovirus neutralization IC50 [11]: > 10 µg/mL

B6: BD56-290 (protein)
chain 1: QVQLQESGPGLVKPSETLSLTCTVSGDSISSYYWSWIRQPPGKGLEWIGYIYYSGSTNYNPSLKSRVTISVDTSKNQFSLKLSSVTAADTAVYYCARGAGGGDWFDPWGQGTLVTVSS
chain 2: DIVMTQSPDSLAVSLGERATINCKSSQSVLYSSNNKNYLAWYQQKPGQPPKLLIYWASTRESGVPDRFSGSGSGTDFTLTISSLQAEDVAVYYCQQYYRTPLTFGGGTKVEIK
pseudovirus neutralization IC50 [1]: 0.143 µg/mL | pseudovirus neutralization IC50 [2]: > 10 µg/mL | pseudovirus neutralization IC50 [3]: > 10 µg/mL | pseudovirus neutralization IC50 [4]: > 10 µg/mL | pseudovirus neutralization IC50 [5]: > 10 µg/mL | pseudovirus neutralization IC50 [6]: > 10 µg/mL | pseudovirus neutralization IC50 [7]: > 10 µg/mL | pseudovirus neutralization IC50 [8]: > 10 µg/mL | pseudovirus neutralization IC50 [9]: > 10 µg/mL | pseudovirus neutralization IC50 [10]: > 10 µg/mL | pseudovirus neutralization IC50 [11]: > 10 µg/mL

B7: BD58-0401 (protein)
chain 1: QITLKESGPTLVKPTQTLTLTCTFSGFSLSTSGVGVGWIRQPPGKALEWLALIYWDDDKRYSPSLKSRLTITKDTSKNQVVLTMTNMDPVDTATYYCAQLQYCGGDCYPFDYWGQGTLVTVSS
chain 2: not shown
pseudovirus neutralization IC50 [1]: > 10 µg/mL | pseudovirus neutralization IC50 [2]: > 10 µg/mL | pseudovirus neutralization IC50 [3]: > 10 µg/mL | pseudovirus neutralization IC50 [4]: > 10 µg/mL | pseudovirus neutralization IC50 [5]: > 10 µg/mL | pseudovirus neutralization IC50 [6]: > 10 µg/mL | pseudovirus neutralization IC50 [7]: > 10 µg/mL | pseudovirus neutralization IC50 [8]: > 10 µg/mL | pseudovirus neutralization IC50 [9]: > 10 µg/mL | pseudovirus neutralization IC50 [10]: > 10 µg/mL | pseudovirus neutralization IC50 [11]: > 10 µg/mL

B8: BD57-0246 (protein)
chain 1: EVQLVQSGAEVKKPGESLKISCKGSGYSFTSYWIAWVRQMPGKGLEWMGIIYPGDSDTRYSPSFQGQVTISADKSISTAYLQWSSLKASDTAMYYCARSMSEDAFDIWGQGTMVTVSS
chain 2: SYVLTQPPSVSVAPGKTARITCGGNNFGSKSVHWYQQKPGQAPVLVIYYDSDRPSGIPERFSGSNSGNTATLTISRVEAGDEADYYCQVWDSSSDHPNVFGTGTKVTVL
pseudovirus neutralization IC50 [1]: > 10 µg/mL | pseudovirus neutralization IC50 [2]: 0.511 µg/mL | pseudovirus neutralization IC50 [3]: > 10 µg/mL | pseudovirus neutralization IC50 [4]: > 10 µg/mL | pseudovirus neutralization IC50 [5]: 0.389 µg/mL | pseudovirus neutralization IC50 [6]: > 10 µg/mL | pseudovirus neutralization IC50 [7]: > 10 µg/mL | pseudovirus neutralization IC50 [8]: > 10 µg/mL | pseudovirus neutralization IC50 [9]: > 10 µg/mL | pseudovirus neutralization IC50 [10]: > 10 µg/mL | pseudovirus neutralization IC50 [11]: > 10 µg/mL

B9: BD58-0538 (protein)
chain 1: EVQLVQSGAEVKKPGESLKISCRVSGYDFDSYWIGWVRQTPGKGLEWMGIVYPDDSDTRHSPSFHGQVIVSADKSISTAYLQWKSLKASDTAIYYCARHRGRTYSGTLDYWGLGTPVIVSS
chain 2: DIQMTQSPSSLSASVGNRVTITCRASQDIGNSLNWYQQKSGRAPKLLISDASNLETGVTSRFSGSGSGRDFTFTISSLQPEDIATYYCQHYGNLPFTFGPGTKVDIK
pseudovirus neutralization IC50 [1]: > 10 µg/mL | pseudovirus neutralization IC50 [2]: > 10 µg/mL | pseudovirus neutralization IC50 [3]: > 10 µg/mL | pseudovirus neutralization IC50 [4]: > 10 µg/mL | pseudovirus neutralization IC50 [5]: > 10 µg/mL | pseudovirus neutralization IC50 [6]: > 10 µg/mL | pseudovirus neutralization IC50 [7]: > 10 µg/mL | pseudovirus neutralization IC50 [8]: > 10 µg/mL | pseudovirus neutralization IC50 [9]: > 10 µg/mL | pseudovirus neutralization IC50 [10]: > 10 µg/mL | pseudovirus neutralization IC50 [11]: > 10 µg/mL

B10: BD57-0305 (protein)
chain 1: EVQLVESGGGVVRPGGSLRLSCAASGFSFGDYGMNWVRQAPGKGLEWVSAINWNGGSTGYADSVKGRFTISRDNAKNSLYLQMNSLRAEDTALYYCARNMVPRLPLYYFDYWGQGTLVTVSS
chain 2: NFMLTQPHSVSESPGKTVTISCTGSSGSIASNYVQWYQQRPGSAPTTVIYEDNQRPSGVPDRFSGSIDSSSNSASLTISGLKTEDEADYYCQSYQSSTVVFGGGTKLTVL
pseudovirus neutralization IC50 [1]: 2.34 µg/mL | pseudovirus neutralization IC50 [2]: 1.29 µg/mL | pseudovirus neutralization IC50 [3]: 1.11 µg/mL | pseudovirus neutralization IC50 [4]: 0.914 µg/mL | pseudovirus neutralization IC50 [5]: 0.629 µg/mL | pseudovirus neutralization IC50 [6]: > 10 µg/mL | pseudovirus neutralization IC50 [7]: 1.38 µg/mL | pseudovirus neutralization IC50 [8]: > 10 µg/mL | pseudovirus neutralization IC50 [9]: > 10 µg/mL | pseudovirus neutralization IC50 [10]: > 10 µg/mL | pseudovirus neutralization IC50 [11]: > 10 µg/mL
